Anti-infective test results gathered from many reports (values: NIAID ChemDB through PubChem).

Common to all: growth or infection tests; species: HIV-1; cells: MT-4; read-out: EC50

ECn: concentration that inhibits the pathogen or its effect by n%. An empty or dashed field is not shown. Lines come from different laboratories, so protocols vary. a–b is a range or a potency band.

smiles | strain or isolate | mutations | read by | value
COc1cccc2c1nc(-c1ccccc1F)n2Cc1ccccc1 | IIIB |  |  | 0.019 µg/mL
CC(C)CN(C[C@@H](O)[C@H](Cc1ccccc1)NC(=O)O[C@H]1CO[C@H]2OCC[C@H]21)S(=O)(=O)c1ccc2nc(NC3CCN(C4CCCC4)CC3)sc2c1 | T14434 | R41T K70E V77I/V | reporter gene | 85 nM
CN1CCn2c(nc(C(=O)NCc3ccc(F)c(Br)c3)c(O)c2=O)C1(C)C |  |  | p24 | <1 µM
Cc1cc(C)cc(Cc2c(I)c(=O)[nH]c(=O)n2COCc2ccccc2)c1 | A17 | K103N | p24 / ELISA | 0.151 µM
CC(C)CN(C[C@@H](O)[C@H](Cc1ccccc1)NC(=O)O[C@H]1CO[C@H]2OCC[C@H]21)S(=O)(=O)c1ccc(-c2coc(-c3ccc([N+](=O)[O-])cc3)n2)cc1 | LAI |  | cytopathic effect / MTT | 0.013 µM
CC(C)C1=C2[C@H]3CC[C@@H]4[C@@]5(C)CC[C@H](OC(=O)C6C[C@@H](C(=O)O)C6(C)C)C(C)(C)[C@@H]5CC[C@@]4(C)[C@]3(C)CC[C@@]2(NC(=O)C(C)(C)NC(=O)c2ccc(N3CCS(=O)(=O)CC3)cc2)CC1=O | NL4-3 |  | p24 | 0.00501–0.01 µM
COc1cccc2c1nc(-c1ccccc1F)n2CC=C(C)C | IIIB |  |  | 0.0026 µg/mL
Cc1cc(CN2CCn3c(nc(C(=O)NCc4ccc(F)cc4)c(O)c3=O)C2(C)C)no1 |  |  | p24 | <1 µM
Cn1c2ccccc2c2c1cc(C#N)c(=O)n2-c1ccc([N+](=O)[O-])cc1 | D | RT-L100I K103N | cytopathic effect / MTT | 0.05 µM
CC(C)CN(C[C@@H](O)[C@H](Cc1ccccc1)NC(=O)O[C@H]1CO[C@H]2OCC[C@H]21)S(=O)(=O)c1ccc(-c2coc(-c3ccco3)n2)cc1 | LAI |  | cytopathic effect / MTT | 0.004 µM
COP(=O)(c1cc(C)cc(CCC#N)c1)c1c(C(N)=O)[nH]c2ccc(Cl)cc12 | NL4-3 | K103N/Y181C | p24 / ELISA | 0.0065 µM
CC(C)CN(C[C@@H](O)[C@H](Cc1ccccc1)NC(=O)O[C@H]1CO[C@H]2OCC[C@H]21)S(=O)(=O)c1ccc(-c2csc(NCCCN(C)C)n2)cc1 | LAI |  | cytopathic effect / MTT | 0.032 µM
Cc1nnc(-c2ccc(C(=O)NC(C)(C)C(=O)N[C@@]34CC[C@]5(C)[C@H](CC[C@@H]6[C@@]7(C)CC[C@H](OC(=O)C8C[C@@H](C(=O)O)C8(C)C)C(C)(C)[C@@H]7CC[C@]65C)C3=C(C(C)C)C(=O)C4)cc2)o1 | NL4-3 |  | p24 | 0.00501–0.01 µM
CC(C)CN(C[C@@H](O)[C@H](Cc1ccccc1)NC(=O)O[C@H]1CO[C@H]2OCC[C@H]21)S(=O)(=O)c1ccc(-c2cnc(NC(=O)O[C@H]3CO[C@H]4OCC[C@H]43)[nH]2)cc1 |  | PR-L010F M046I M071V I084V | cytopathic effect / MTT | 0.52 µM
COc1cccc2c1nc(-c1ccccc1F)n2Cc1cccc(C#N)c1 | IIIB |  |  | 0.0081 µg/mL
Cc1ccnc2c1NC(=O)c1cccnc1N2C1CC1 |  | Y188L | MTT | >6.125 µM
N#Cc1cc2[nH]c3ccccc3c2n(-c2ccc([N+](=O)[O-])cc2)c1=O | G | RT-V106A F227L | cytopathic effect / MTT | 0.63 µM
Cc1noc(C)c1C(=O)NC(C)(C)C(=O)N[C@@]12CC[C@]3(C)[C@H](CC[C@@H]4[C@@]5(C)CC[C@H](OC(=O)C6C[C@@H](C(=O)O)C6(C)C)C(C)(C)[C@@H]5CC[C@]43C)C1=C(C(C)C)C(=O)C2 | NL4-3 | V7A | p24 | <0.01 µM
CC(C)[C@H](NC(=O)OCc1ccccn1)C(=O)N[C@@H](Cc1ccccc1)[C@@H](O)C[C@H](Cc1ccccc1)NC(=O)OCc1cccnc1 | NL4-3 | PR-M46I | p24 | <0.8 µM
Cc1cccc(C)c1OCC(=O)N[C@@H](Cc1ccccc1)[C@H](O)CN(CC(C)C)S(=O)(=O)c1ccc(-c2csc(N)n2)cc1 | LAI |  | cytopathic effect / MTT | 1.259 µM
CC(C)C1=C2[C@H]3CC[C@@H]4[C@@]5(C)CC[C@H](OC(=O)C6C[C@@H](C(=O)O)C6(C)C)C(C)(C)[C@@H]5CC[C@@]4(C)[C@]3(C)CC[C@@]2(NC(=O)C(C)(C)NS(C)(=O)=O)CC1=O | NL4-3 |  | p24 | >0.01 µM
CN1CCn2c(nc(C(=O)NCc3ccc(F)cc3)c(O)c2=O)C(NCc2ccccc2)C1 |  |  | p24 | <50 µM
CC(C)C1=C2[C@H]3CC[C@@H]4[C@@]5(C)CC[C@H](OC(=O)C6C[C@@H](C(=O)O)C6(C)C)C(C)(C)[C@@H]5CC[C@@]4(C)[C@]3(C)CC[C@@]2(NC(=O)C(C)(C)NC(=O)c2cc(C(C)C)[nH]n2)CC1=O | NL4-3 |  | p24 | <0.005 µM
Cc1cc(-c2nc(-c3ccc(S(=O)(=O)N(CC(C)C)C[C@@H](O)[C@H](Cc4ccccc4)NC(=O)O[C@H]4CO[C@H]5OCC[C@H]54)cc3)co2)no1 | LAI |  | cytopathic effect / MTT | 0.004 µM
CN1c2ccccc2C2C1C=C(C#N)C(=O)N2c1ccc(C#N)cc1 | LAI |  | cytopathic effect / MTT | 1–32 µM
[N-]=[N+]=N[C@H]1C[C@@H](CO)O[C@H]1n1cnc2c(NC3CCCCC3)ncnc21 | IIIB |  |  | >125 µg/mL
COc1cccc2c1nc(-c1ccccc1F)n2Cc1ccccc1F | IIIB |  |  | 0.019 µg/mL
[N-]=[N+]=N[C@H]1C[C@@H](CO)O[C@H]1n1cnc2c(NC3CC3)ncnc21 | IIIB |  |  | >125 µg/mL
CCN(C(=O)C(=O)N(C)C)C1CN(C)CCn2c1nc(C(=O)NCc1ccc(F)c(C)c1)c(O)c2=O |  |  | p24 | <1 µM
N#Cc1cc(Cl)cc(Oc2c(Br)ccc(CC(=O)Nc3ccc(S(N)(=O)=O)cc3Cl)c2F)c1 |  | V106A/F227C/M230L |  | >0.4 µM
N#CC1=CC2C(c3ccccc3N2C2CCCC2)N(c2ccc([N+](=O)[O-])cc2)C1=O | LAI |  | cytopathic effect / MTT | 1–32 µM
Cc1occc1C(=O)NC(C)(C)C(=O)N[C@@]12CC[C@]3(C)[C@H](CC[C@@H]4[C@@]5(C)CC[C@H](OC(=O)C6C[C@@H](C(=O)O)C6(C)C)C(C)(C)[C@@H]5CC[C@]43C)C1=C(C(C)C)C(=O)C2 | NL4-3 | V7A | p24 | >0.05 µM
CC1(C)c2nc(C(=O)NCc3ccc(F)cc3)c(O)c(=O)n2CCN1Cc1nnco1 |  |  | p24 | <1 µM

2 of the rows above, restated:

smiles,strain or isolate,mutations,read by,value
COc1cccc2c1nc(-c1ccccc1F)n2Cc1ccccc1F,IIIB,,,0.019 µg/mL
CN1CCn2c(nc(C(=O)NCc3ccc(F)cc3)c(O)c2=O)C(NCc2ccccc2)C1,,,p24,<50 µM